Measured values from several laboratories, pooled; numbers as filed in NIAID ChemDB.

Common to all: tests in culture; agent: Herpes simplex virus 1

Lines come from different laboratories, so protocols vary. Blank or dashed fields: not listed here. ECn is the concentration giving n% inhibition of infection, replication or growth.

structure,strain,endpoint,cell line,read by,result
C[C@H](N)C(=O)O[C@H]1C[C@H](n2cc(/C=C/Br)c(=O)[nH]c2=O)O[C@@H]1COP1(=O)OCc2ccccc2O1,B2006 (TK-),EC50,VERO,plaque count,>128 µg/mL
COC(=O)OP(=O)(CO[C@H](CO)Cn1cnc(N)nc1=O)OC(=O)OC,KOS ACV,EC50,-,cytopathic effect,0.1 µg/mL
C[C@H]1O[C@@H](O[C@H]2CC[C@]3(C=O)[C@H]4CC[C@]5(C)[C@@H](C6=CC(=O)OC6)CC[C@]5(O)[C@@H]4CC[C@]3(O)C2)C[C@H](O)[C@@H]1O,29R,EC50,VERO,plaque count,0.11 µM
Nc1ncnc2c1ncn2C[C@@H](CO)OCP(=O)(O)O,KOS,EC50,VERO,cytopathic effect,0.67 µg/mL
Nc1nc2c(ncn2[C@H]2C[C@@]23C[C@@H]3CO)c(=O)[nH]1,-,EC50,BSC-1,ELISA,>100 µM
Cc1cn([C@@H]2O[C@H](CO)C[C@@H]2O)c(=O)[nH]c1=O,-,EC50,HEL,plaque count,>1322 µM
[N-]=[N+]=NC[C@H]1O[C@@H](n2cc(I)c(=O)[nH]c2=O)C[C@@H]1O,-,EC50,BHK,plaque count,>0.5 µM
CCOC(=O)P(=O)(OCCOCn1cnc2c(=O)[nH]c(N)nc21)OC(C)C,L2/R,EC95,VERO,cytopathic effect,>298 µM
Cc1c(C(N)=O)ncn1C1CC(O)C(CO)O1,-,EC50,HeLa,cytopathic effect,150 µg/mL
[N-]=[N+]=NC[C@H]1O[C@@H](n2ccc(=O)[nH]c2=O)C[C@@H]1O,-,EC50,BHK,plaque count,>2 µM
N#Cc1c(NC(=O)Nc2ccccc2)nc2[nH]c(=O)[nH]c(=O)c2c1-c1ccc(Br)cc1,-,EC50,VERO,plaque count,20 µg/mL
Cc1[nH]cnc1C(N)=O,-,EC50,HeLa,cytopathic effect,>200 µg/mL
O=C(O)CP(=O)(O)O,KOS,EC50,VERO,cytopathic effect,22 µg/mL
N#C/C(=C/c1ccncc1)c1csc2ccccc12,MCRAE,EC50,MRC-5,cytopathic effect,<1 µg/mL
Nc1nc2c(ncn2COC(CO)CO)c(=O)[nH]1,PCV-resistant/B,EC50,HEL,cytopathic effect,0.85 µg/mL
N#Cc1cc2ccncc2c2sc3ccccc3c12,MCRAE,EC50,MRC-5,cytopathic effect,<1 µg/mL
COc1cc([C@@H]2c3cc(O)c(O)cc3C[C@H]3COC(=O)[C@@H]32)cc(OC)c1OC,KOS,EC50,MRC-5,-,0.248 µg/mL
CO[C@H]1C[C@H](O[C@H]2CC[C@]3(C=O)[C@H]4CC[C@]5(C)[C@@H](C6=CC(=O)OC6)CC[C@]5(O)[C@H]4CC[C@]3(O)C2)O[C@H](C)[C@H]1O,KOS,EC50,VERO,plaque count,0.14 µM
O=c1[nH]c(=O)n([C@H]2C[C@H](O)[C@@H](CO)O2)c[c]1[Hg+].OCC[S-],KOS,EC50,HELA TK-,virus yield,0.074 µg/mL
NC(=O)c1cn([C@@H]2O[C@H](CO)[C@@H](O)[C@@H]2O)c2ncnc(N)c12,S-148,EC50,BSC-1,virus yield,<0.9 µM
CC(=O)NC[C@H]1O[C@@H](n2cc(C)c(=O)[nH]c2=O)C[C@@H]1OC(C)=O,-,EC50,BHK,plaque count,>1.5 µM
COc1cc(C2c3c(cc4c(c3OC)OCO4)C[C@H]3COC(=O)[C@H]23)cc(OC)c1OC,A4-3,EC50,MRC-5,-,0.135 µg/mL
N#Cc1c(NC(=S)Nc2ccccc2)nc2[nH]c(=O)[nH]c(=O)c2c1-c1ccc(Br)cc1,-,EC50,VERO,plaque count,14 µg/mL
O=c1[nH]c(=O)n([C@@H]2O[C@H](CO)[C@@H](O)[C@@H]2O)cc1C=C(Br)Br,-,EC50,HEL,plaque count,704 µM
Nc1nc2c(ncn2[C@H]2C[C@]23C[C@@H]3CO)c(=O)[nH]1,-,EC50,VERO,plaque count,>50 µM
C[C@H]1OC(O[C@H]2[C@@H](O)C[C@H](O[C@@]3(C)[C@@H](O)C[C@H](O[C@H]4CC[C@@]5(C)[C@H](CC[C@@H]6[C@@H]5C[C@@H](O)[C@]5(C)[C@@H](C7=CC(=O)OC7)CC[C@]65O)C4)O[C@@H]3C)O[C@@H]2C)C[C@H](O)[C@@H]1O,29R,EC50,VERO,plaque count,0.18 µM
O=C(O)P(=O)(O)O,-,EC90,GMK,plaque count,19.45 µg/mL
Nc1ncnc2c1ncn2CCOCP(=O)(O)O,KOS,EC50,VERO,plaque count,95 µM
CCc1cn([C@@H]2O[C@H](CO)[C@@H](O)[C@@H]2O)c(=O)[nH]c1=O,-,EC50,HEL,plaque count,7.4 µM
COc1nc(N)nc2c1ncn2C=C1CC1CO,-,EC50,VERO,plaque count,>50 µM
C=C1[C@H](CO)[C@@H](O)C[C@@H]1n1cnc2c(=O)[nH]c(N)nc21,Schooler,EC50,HFF,-,32 µM
C[C@H]1O[C@@H](O[C@H]2[C@@H](O)C[C@H](O[C@H]3CC[C@@]4(C)[C@H](CC[C@@H]5[C@@H]4CC[C@]4(C)[C@@H](C6=CC(=O)OC6)CC[C@]54O)C3)O[C@@H]2C)C[C@H](O)[C@@H]1O,KOS,EC50,VERO,plaque count,0.12 µM
CC(=O)CCC(=O)O[C@H]1C[C@H](n2cc(/C=C/Br)c(=O)[nH]c2=O)O[C@@H]1COP1(=O)OCc2ccccc2O1,B2006 (TK-),EC50,VERO,plaque count,>128 µg/mL
CO[C@H]1[C@@H](O)C[C@H](O[C@H]2[C@@H](O)C[C@H](O[C@H]3[C@@H](O)C[C@H](O[C@H]4CC[C@@]5(C)[C@H](CC[C@@H]6[C@@H]5CC[C@]5(C)[C@@H](C7=CC(=O)OC7)CC[C@]65O)C4)O[C@@H]3C)O[C@@H]2C)O[C@@H]1C,29R,EC50,VERO,plaque count,0.26 µM
COc1ccc(-c2c3c(N)n(-c4ccccc4)c(=S)nc3nc3[nH]c(=O)[nH]c(=O)c23)cc1OC,-,EC50,VERO,plaque count,16 µg/mL
Nc1nc2c(ncn2CCC(CO)CO)c(=O)[nH]1,PCV-resistant/B,EC50,HEL,cytopathic effect,>20 µg/mL
CO[C@H]1C[C@H](O[C@H]2[C@@H](O)C[C@H](O[C@H]3[C@@H](O)C[C@H](O[C@H]4CC[C@@]5(C)[C@H](CC[C@@H]6[C@@H]5CC[C@]5(C)[C@@H](C7=CC(=O)OC7)CC[C@]65O)C4)O[C@@H]3C)O[C@@H]2C)O[C@H](C)[C@H]1O,KOS,EC50,VERO,plaque count,0.12 µM
COC(=O)[C@H](C)NP(=O)(OC[C@H]1C/C1=C\n1cnc2c(N)nc(N)nc21)Oc1ccccc1,-,EC50,VERO,plaque count,>100 µM
Nc1ncnc2c1ncn2C[C@@H](CO)OCP(=O)(O)O,KOS PMEA-resistant,EC50,HEL,cytopathic effect,0.06 µg/mL
O=C(O)P(=O)(O)O,KOS,EC50,HEL,cytopathic effect,32 µg/mL
Cc1cccc2c1OP(=O)(OC[C@H]1O[C@@H](n3cc(/C=C/Br)c(=O)[nH]c3=O)C[C@@H]1OC(=O)[C@H](C)N)OC2,B2006 (TK-),EC50,VERO,plaque count,>128 µg/mL
Cc1cn([C@@H]2O[C@H](CO)[C@@H](O)[C@@H]2F)c(=O)[nH]c1=O,-,EC50,HEL,plaque count,0.081 µM
COc1cc(C2c3cc4c(cc3C[C@H]3COC(=O)[C@H]23)OCO4)cc(OC)c1OC,ITOH,EC50,MRC-5,-,0.004 µg/mL
N#Cc1c(Cl)nc2nc(Cl)nc(Cl)c2c1-c1ccc(Br)cc1,-,EC50,VERO,plaque count,50 µg/mL
CO[C@@H]1[C@H](OP(O)(=S)OC[C@H]2O[C@@H](n3cnc4c(N)ncnc43)C[C@@H]2O)[C@@H](CO)O[C@H]1n1ccc(=O)[nH]c1=O,KOS,EC50,-,-,>20 µM
O=C(O)P(=O)(O)O,-,EC50,-,plaque count,10 µM
Cn1c2ccccc2c2c3c(c4c5ccccc5n(CCC#N)c4c21)CNC3=O,K1,EC50,HEF,cytopathic effect,>25 µM
O=c1[nH]c(=O)n([C@H]2C[C@H](O)[C@@H](COP3(=O)OCc4ccccc4O3)O2)cc1/C=C/Br,KUPKA (TK+),EC50,VERO,plaque count,0.38 µg/mL
O=C(O)P(=O)(O)O,KOS PMEA-resistant,EC50,HEL,cytopathic effect,113.7 µg/mL
O=C1NCc2c1c1c3ccccc3[nH]c1c1[nH]c3ccccc3c21,K1,EC50,HEF,cytopathic effect,>25 µM
CC(=O)NC[C@H]1O[C@@H](n2ccc(=O)[nH]c2=O)C[C@@H]1OC(C)=O,-,EC50,BHK,plaque count,>1.6 µM
O=c1[nH]c(=O)n([C@H]2C[C@H](O)[C@@H](CO)O2)c[c]1[Hg+].OCC(O)C[S-],KOS,EC50,KB,virus yield,0.001 µg/mL
NC[C@H]1O[C@@H](n2ccc(=O)[nH]c2=O)C[C@@H]1O,-,EC50,BHK,plaque count,>2 µM
COc1ccc(-c2c(C#N)c(N)nc3[nH]c(=O)[nH]c(=O)c23)cc1OC,-,EC50,VERO,plaque count,50 µg/mL
Cc1cccc2c1OP(=O)(OC[C@H]1O[C@@H](n3cc(/C=C/Br)c(=O)[nH]c3=O)C[C@@H]1OC(=O)[C@H](N)C(C)C)OC2,KUPKA (TK+),EC50,VERO,plaque count,0.57 µg/mL
COC(=O)[C@H](C)NP(=O)(OC[C@H]1C/C1=C/n1cnc2c(=O)[nH]c(N)nc21)Oc1ccccc1,-,EC50,BSC-1,ELISA,>100 µM
CCCCC(=O)NC[C@H]1O[C@@H](n2cc(I)c(=O)[nH]c2=O)C[C@@H]1O,-,EC50,BHK,plaque count,>0.7 µM
Nc1nc2c(ncn2COC(CO)CO)c(=O)[nH]1,KOS,EC50,HEL,cytopathic effect,0.001 µg/mL
O=c1[nH]c(=O)n([C@H]2C[C@H](O)[C@@H](CO)O2)c[c]1[Hg+].O[C@H](C[S-])[C@H](O)CS,KOS,EC50,HELA TK-,virus yield,0.403 µg/mL
Cc1cccc2c1OP(=O)(OC[C@H]1O[C@@H](n3cc(/C=C/Br)c(=O)[nH]c3=O)C[C@@H]1OC(=O)[C@@H](C)N)OC2,KUPKA (TK+),EC50,VERO,plaque count,0.39 µg/mL
Nc1nc2c(ncn2COCCO)c(=O)[nH]1,MacIntyre,EC50,VERO,plaque count,0.61 µM
C#Cc1cn([C@H]2C[C@H](O)[C@@H](CO)O2)c(=O)[nH]c1=O,-,EC50,HEL,plaque count,2.54 µM
COC(=O)[C@H](C)NP(=O)(OC[C@@H]1C[C@]12C[C@@H]2n1cnc2c(N)ncnc21)Oc1ccccc1,-,EC50,BSC-1,ELISA,7 µM
Nc1nc(N)c2ncn(CCOCP(=O)(O)O)c2n1,KOS HPMPA-resistant,EC50,HEL,cytopathic effect,2.9 µg/mL
CC(C)C(=O)NC[C@H]1O[C@@H](n2cc(I)c(=O)[nH]c2=O)C[C@@H]1OC(=O)C(C)C,-,EC50,BHK,plaque count,>1 µM
Nc1c2c(-c3ccc(Br)cc3)c3c(=O)[nH]c(=O)[nH]c3nc2nc(=S)n1-c1ccccc1,-,EC50,VERO,plaque count,10 µg/mL
Nc1ccn(C[C@@H](CO)OCP(=O)(O)O)c(=O)n1,KOS,EC50,HEL,cytopathic effect,0.4 µg/mL
Nc1nc2c(ncn2CCC(CO)CO)c(=O)[nH]1,KOS S2242-resistant,EC50,HEL,cytopathic effect,0.11 µg/mL
Cc1cccc2c1OP(=O)(OC[C@H]1O[C@@H](n3cc(/C=C/Br)c(=O)[nH]c3=O)C[C@@H]1OC(=O)C(C)C)OC2,B2006 (TK-),EC50,VERO,plaque count,>128 µg/mL
Nc1ccn(C[C@@H](CO)OCP(=O)(O)O)c(=O)n1,KOS,EC50,VERO,cytopathic effect,0.46 µg/mL
O=c1[nH]c(=O)n([C@H]2C[C@H](O)[C@@H](COP3(=O)OCc4c(Cl)cccc4O3)O2)cc1/C=C/Br,B2006 (TK-),EC50,VERO,plaque count,>128 µg/mL
Cc1cn([C@@H]2O[C@H](CO)[C@@H](O)[C@@H]2O)c(=O)[nH]c1=O,KOS PMEDAP-resistant,EC50,HEL,cytopathic effect,0.45 µg/mL
Nc1nc2c(ncn2[C@H]2C[C@@]23C[C@H]3CO)c(=O)[nH]1,-,EC50,VERO,plaque count,>100 µM

8 of the rows above, restated:

structure,strain,endpoint,cell line,read by,result
O=c1[nH]c(=O)n([C@H]2C[C@H](O)[C@@H](CO)O2)c[c]1[Hg+].O[C@H](C[S-])[C@H](O)CS,KOS,EC50,HELA TK-,virus yield,0.403 µg/mL
N#Cc1c(NC(=O)Nc2ccccc2)nc2[nH]c(=O)[nH]c(=O)c2c1-c1ccc(Br)cc1,-,EC50,VERO,plaque count,20 µg/mL
CC(C)C(=O)NC[C@H]1O[C@@H](n2cc(I)c(=O)[nH]c2=O)C[C@@H]1OC(=O)C(C)C,-,EC50,BHK,plaque count,>1 µM
Nc1nc2c(ncn2COC(CO)CO)c(=O)[nH]1,PCV-resistant/B,EC50,HEL,cytopathic effect,0.85 µg/mL
O=C(O)P(=O)(O)O,KOS,EC50,HEL,cytopathic effect,32 µg/mL
N#Cc1c(NC(=S)Nc2ccccc2)nc2[nH]c(=O)[nH]c(=O)c2c1-c1ccc(Br)cc1,-,EC50,VERO,plaque count,14 µg/mL
O=c1[nH]c(=O)n([C@H]2C[C@H](O)[C@@H](CO)O2)c[c]1[Hg+].OCC(O)C[S-],KOS,EC50,KB,virus yield,0.001 µg/mL
O=c1[nH]c(=O)n([C@H]2C[C@H](O)[C@@H](COP3(=O)OCc4ccccc4O3)O2)cc1/C=C/Br,KUPKA (TK+),EC50,VERO,plaque count,0.38 µg/mL